# From article PMC12345164
# For at least one entry, the source does not settle the construct or the ends of the probe. The comparison behind a weaker result is the experiment's own reference, which may not be listed here. Tags and fusion partners may be left off the protein sequences shown.
# Biological target: T1, SaDinG (Staphylococcus aureus RN4220) (UniProt Q2FYH5)
# T1 sequence (looked up): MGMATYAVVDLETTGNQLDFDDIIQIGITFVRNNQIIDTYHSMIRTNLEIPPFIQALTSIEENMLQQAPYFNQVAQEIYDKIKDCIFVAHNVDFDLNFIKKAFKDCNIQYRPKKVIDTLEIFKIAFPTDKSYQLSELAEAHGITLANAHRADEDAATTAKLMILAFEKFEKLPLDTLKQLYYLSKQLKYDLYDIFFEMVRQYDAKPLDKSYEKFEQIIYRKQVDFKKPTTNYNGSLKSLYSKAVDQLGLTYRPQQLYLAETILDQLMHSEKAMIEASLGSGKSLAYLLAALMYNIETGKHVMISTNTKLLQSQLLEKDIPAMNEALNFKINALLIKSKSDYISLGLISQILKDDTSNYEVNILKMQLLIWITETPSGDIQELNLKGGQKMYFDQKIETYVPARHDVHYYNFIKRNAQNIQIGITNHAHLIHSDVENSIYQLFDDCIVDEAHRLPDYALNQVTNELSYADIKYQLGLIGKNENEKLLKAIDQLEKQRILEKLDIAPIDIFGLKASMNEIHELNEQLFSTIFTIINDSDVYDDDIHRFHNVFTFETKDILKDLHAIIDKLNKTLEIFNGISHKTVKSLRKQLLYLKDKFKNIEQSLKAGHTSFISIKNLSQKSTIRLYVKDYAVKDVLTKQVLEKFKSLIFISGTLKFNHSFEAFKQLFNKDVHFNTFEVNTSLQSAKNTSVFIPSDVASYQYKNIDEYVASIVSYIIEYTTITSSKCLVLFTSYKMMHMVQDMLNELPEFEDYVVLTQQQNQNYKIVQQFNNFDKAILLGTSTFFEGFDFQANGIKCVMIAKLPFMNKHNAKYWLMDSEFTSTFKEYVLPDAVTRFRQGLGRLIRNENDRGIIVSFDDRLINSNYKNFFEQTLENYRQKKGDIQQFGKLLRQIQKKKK
# Test: EMSA
# Details: EMSA: 50 mM Tris-HCl pH 8.0, 80 mM NaCl, 1 mM TCEP, 3.2% glycerol, 25 C, 10 min, 100 nM DNA, 5% native PAGE, protein details: 6xHis-TEV tag removed, single-stranded DNA
Sequence,"binding result (ATP 0.625-10 mM (Kd increases), recombinant …, residues 1-897, label: 5' 6-FAM)","binding result (no added metal, recombinant protein, residues …, label: 5' 6-FAM)","binding result (no added metal, affinity comparable to 5'-FAM DNA, recombinant protein, residues 1-897, label: 3' 6-FAM)"
TTTTTTTTTTTTTTTTTTTT [5'FAM-20 nt poly dT],binds more weakly,binds,–
TTTTTTTTTTTTTTTTTTTT [3'FAM-20 nt poly dT],–,–,binds
